Measured values reported in the supplement of paper PMC3484114.
± gives the standard deviation. The entries are a selection whose mix differs from that of the whole data set.

tested on: OVCAR-3-derived ovarian cancer stem-like cells (spheroids); assay: cell growth relative to untreated control; higher = more growth (less inhibition); settings: 2.29 µM; 96 h
Outline: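 Viability of stem-like cells from OVCAR-3 spheroids was assessed with TOX8 resazurin fluorescence at ex 560/em 590 nm. The cells had been trypsin-dissociated, seeded at 50,000 cells/mL in stem cell medium in ultra-low attachment 96-well plates and preincubated 24 h, then treated with compounds at 2.29 uM for 96 h at 37°C, 5% CO2, in 4 replicate wells, with fluorescence read after 4 h. Results were converted to percent growth against untreated wells after blank subtraction and Grubbs outlier removal.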

Going from `CC1=C[C@H]2O[C@@H]3CC4OC(=O)/C=C\C=C\C(C(C)O)OCC(O)C(C)CC(=O)OC[C@@]2(C[C@@H]1O)[C@]4(C)[C@@]31CO1` (some centres undefined) to `Fc1ccc(SC(CCl)CCl)cc1`, the cell growth rises from 11.9 ± 8.4% to 94.4 ± 9.4%.

Going from `O=NN(CCSCCCl)C(=O)NC1CCCCC1` to `c1ccc2c(NCCCCCCCCNc3c4ccccc4nc4ccccc34)c3ccccc3nc2c1`, the cell growth falls from 111 ± 57% to 4.2 ± 2%.
